System: Human immunodeficiency virus 1
Test: Inhibition of HIV1 reverse transcriptase at 0.5 uM
In short: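 HIV reverse transcriptase (type B, 66 kDa subunit) at 2 nM with 1 µg/mL primed poly(A) RNA and 5 µM dTTP, in 50 mM Tris-HCl pH 8.1, 6.5 mM MgCl2, 100 mM NaCl and 10 mM DTT. Compounds were tested up to 500 µM final. Reactions were started with enzyme, run 10 min at 37 °C and stopped with EDTA. DNA was read by PicoGreen fluorescence (ex 480/em 538 nm), with no-enzyme or no-dTTP blanks. Percent inhibition was blank-corrected; Ki came from titration fitted to a competitive model.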

Compound: Cc1cn([C@@H]2C[C@@H](N=[N+]=[N-])[C@H](COP(=O)(O)C(F)(F)P(=O)(O)OP(C)(=O)O)O2)c(=O)[nH]c1=O
- inhibition: 14.2%

— ChEMBL document CHEMBL1149314, “Synthesis of AZT 5'-triphosphate mimics and their inhibitory effects on HIV-1 reverse transcriptase” (J Med Chem, 2004)
